Results of unrelated studies side by side (data: NIAID ChemDB).

Common to all: whole-cell or culture tests; species: HIV-1; cells: MT-4; measure: EC50

Blank or dashed fields: not listed here. Conditions beyond the fields shown may differ between rows. ECn: concentration that inhibits the pathogen or its effect by n%.

compound | strain or isolate | changes | read by | result
CCN1C(C)Cn2c(=O)[nH]c3cc(Cl)cc(c32)S1(=O)=O | - | - | cytopathic effect / MTT | >130 µM
CCc1cccc(N2C(=O)CSC2c2c(F)cccc2Cl)c1 | IIIB | - | cytopathic effect | 0.21 µM
Nc1nc(Sc2ccccc2)c([N+](=O)[O-])c(=O)[nH]1 | IIIB | - | - | >88.07 µg/mL
NC(=O)c1ccccc1NC(=O)CSc1nnnn1-c1cccc2ccccc12 | - | - | p24 | <10 µM
O=[N+]([O-])c1ccc(-c2csc(N/N=C/c3ccccn3)n2)cc1 | IIIB | - | MTT | >17.3 µM
O=C1CSC(c2c(F)cccc2F)N1c1cccc(Cl)c1 | IIIB | - | cytopathic effect | 1.44 µM
COC(=O)c1ccc(NC(=O)CSc2nnnn2-c2c(C)cc(C)cc2C)c(C)c1 | - | - | p24 | <10 µM
Cc1cc(/C=C/C#N)cc(C)c1Nc1nc(Nc2ccc(C#N)cc2)ncc1C(O)OCCO | MDR | - | - | 269 µM
Cc1ccc(/C=N/Nc2nc(-c3ccc(Br)cc3)cs2)cc1 | IIIB | - | MTT | >125 µM
COc1ccc(-c2ccc(N=Nc3c(N)nc(=O)n(C)c3N(Cc3ccccc3)Cc3ccccc3)cc2)cc1OC | IIIB | - | MTT | >2.29 µM
Cc1c(C(C#N)c2ccccc2)nc(SC(C)C)[nH]c1=O | IIIB | - | MTT | 0.002 µM
CCC1(c2ccccc2)OC(=S)Nc2ccc(Cl)cc21 | IIIB | - | p24 | <0.1 µM
CCOC(=O)c1ccc(-c2cc(N)nc(=O)n2C)cc1 | IIIB | - | MTT | >75.23 µM
C(=N\Nc1nc(-c2ccccc2)cs1)/c1ccco1 | IIIB | - | MTT | >11.3 µM
CC1Cn2c(=O)[nH]c3cc(Cl)cc(c32)S(=O)(=O)N1 | - | - | cytopathic effect / MTT | >200 µM
Cc1ccc(-c2c(C)c3c(c(C)c2[C@H](OC(C)(C)C)C(=O)O)N(S(C)(=O)=O)Cc2cccc(F)c2-3)c(O)c1 | - | - | MTT | 0.02 µM
Cn1c(N2CCCCC2)c(N=Nc2ccc(Cl)cc2)c(N)nc1=O | IIIB | - | MTT | >20.11 µM
O=C1CSC(c2c(Cl)cccc2Cl)N1c1cccc([N+](=O)[O-])c1 | IIIB | - | cytopathic effect | 0.73 µM
Cc1nc2ccccc2c(-c2cc(F)c3c(c2C)CCCO3)c1[C@H](OC(C)(C)C)C(=O)O | NL4-3 | N222K | luminescence | 0.039 µM
CCC(C)Sc1nc(Cc2cccc3ccccc23)cc(=O)[nH]1 | IIIB | - | cytopathic effect / MTT | 0.33 µM
Cc1csc(CC(O)c2cnc(Nc3ccc(C#N)cc3)nc2Nc2c(C)cc(/C=C/C#N)cc2C)n1 | PSI (IIIB) | - | - | 437 µM
c1ccc(CNCCc2ccc(CN3CCNCCCCCCCNCC3)cc2)nc1 | IIIB | - | p24 | 0.032 µg/mL
O=C(CCSc1nnnn1-c1cccc2ccccc12)Nc1ccccc1Cl | - | - | p24 | <10 µM
C[C@@H]1CN2C[C@H]3CCC4=C5C(=CC[C@@]56C(=O)C1C[C@@H]2[C@@]36C)CC[C@@]41C[C@H]2CC[C@@H]3CN4C[C@@H](C)[C@H]5C[C@@H]4[C@]3(C)[C@]3(CCC1=C23)C5=O | NL4-3 | - | MTT | 4.5 µM
CC(C)=CCN1C(C)Cn2c(=S)[nH]c3cc(Cl)cc(c32)S1(=O)=O | - | - | cytopathic effect / MTT | >23 µM
O=C1CSC(c2c(Cl)cccc2Cl)N1c1cc(Cl)cc(Cl)c1 | IIIB | - | cytopathic effect | 0.28 µM
CCc1c(Cc2c(F)cccc2F)nc(SC(C)C)[nH]c1=O | IIIB | - | cytopathic effect / MTT | 0.1 µM
O=C(CCSc1nnnn1-c1cccc2ccccc12)Nc1ccccc1[N+](=O)[O-] | - | - | p24 | <10 µM
CCCn1c(Sc2ccncc2)c([N+](=O)[O-])c(=O)[nH]c1=O | IIIB | - | - | >76.63 µg/mL
Cc1cc(/C=C/C#N)cc(C)c1Nc1nc(Nc2ccc(C#N)cc2)ncc1C(O)C(C)C | K103N + Y181C | - | - | 0.575 µM
O=C1Nc2ccc(Cl)cc2[C@@](C#Cc2ccccc2)(C(F)(F)F)O1 | IIIB | - | p24 | <0.012 µM
C/C(=N\Nc1nc(-c2ccc(Cl)cc2)cs1)c1ccc(-n2ccnc2)cc1 | IIIB | - | MTT | >92.25 µM
COC(O)c1cnc(Nc2ccc(C#N)cc2)nc1Nc1c(C)cc(/C=C/C#N)cc1C | K103N + Y181C | - | - | 0.01778 µM
O=C1Nc2ccc(Cl)cc2C(C#Cc2ccccc2)(C(F)(F)F)O1 | IIIB | - | p24 | <0.025 µM
O=C1CSC(c2c(Cl)cccc2Cl)N1c1ccccn1 | IIIB | - | cytopathic effect / MTT | >14.7 µM
CCC(O)c1cnc(Nc2ccc(C#N)cc2)nc1Nc1c(C)cc(/C=C/C#N)cc1C | PSI (IIIB) | - | - | 1070 µM
O=C1CSC(c2c(F)cccc2Cl)N1c1cc(F)cc(F)c1 | IIIB | - | cytopathic effect | 0.25 µM
CC1(C)CC=C(c2cn(-c3nccc(C(=O)NC4CCC(N5CC6CCC(C5)O6)CC4)n3)c3ccc(F)c([C@H](OC(C)(C)C)C(=O)O)c23)CC1 | NL4-3 | G140S/Q148H | luminescence | 0.0051 µM
CCCNc1c(N=Nc2ccc(Cl)cc2)c(N)nc(=O)n1C | IIIB | - | MTT | >100 µM
Cc1cc(/C=C/C#N)cc(C)c1Nc1nc(Nc2ccc(C#N)cc2)ncc1C(O)n1ccnc1 | IIIB | - | - | 0.00372 µM
CN(C)CC#CC1(C(F)(F)F)OC(=O)Nc2ccc(Cl)cc21 | IIIB | - | p24 | <0.1 µM
CNC(O)c1cnc(Nc2ccc(C#N)cc2)nc1Nc1c(C)cc(/C=C/C#N)cc1C | K103N + Y181C | - | - | 0.06607 µM
COc1cccc(N2C(=O)CSC2c2c(Cl)cccc2Cl)c1 | IIIB | - | cytopathic effect | 1.41 µM
Cc1cc(C)c(-c2c3nc(c(-c4c(C)cc(C)cc4C)c4ccc([nH]4)c(-c4c(C)cc(C)cc4C)c4nc(c(-c5c(C)cc(C)cc5C)c5ccc2[nH]5)C=C4)C=C3)c(C)c1 | IIIB | - | cytopathic effect / MTT | 1 µg/mL
CCC(C)Sc1nc(Cc2ccccc2)cc(=O)[nH]1 | IIIB | - | cytopathic effect / MTT | 1.2 µM
Brc1ccc(-c2csc(N/N=C/c3ccncc3)n2)cc1 | IIIB | - | MTT | >125 µM
C=C(C)CN1C(C)C(=O)Nc2ccc(Cl)cc2S1(=O)=O | - | - | cytopathic effect / MTT | 17 µM
COCCOC(O)c1cnc(Nc2ccc(C#N)cc2)nc1Nc1c(C)cc(/C=C/C#N)cc1C | PSI (IIIB) | - | - | 151 µM
Cc1ccc(-c2c(C)c3c(c(C)c2[C@H](OC(C)(C)C)C(=O)O)N(S(C)(=O)=O)Cc2cc(F)ccc2-3)cc1 | - | - | MTT | 0.057 µM
Cc1cc(/C=C/C#N)cc(C)c1Nc1nc(Nc2ccc(C#N)cc2)ncc1C(O)OCc1cccnc1 | Y181C | - | - | 0.09333 µM
O=C1CSC(c2c(F)cccc2F)N1c1cc(Cl)cc(Cl)c1 | IIIB | - | cytopathic effect | 0.97 µM
COc1ccc(-c2cc(N)nc(=O)n2C)cc1OC | IIIB | - | MTT | >14.23 µM
Cn1c(Sc2ccncc2)c([N+](=O)[O-])c(=O)n(C)c1=O | IIIB | - | - | >11.6 µg/mL
Cn1c(-c2ccc(F)c(F)c2)cc(N)nc1=O | IIIB | - | MTT | >16.01 µM
CCCn1c(Sc2cc[n+]([O-])cc2)c([N+](=O)[O-])c(=O)[nH]c1=O | IIIB | - | - | >0.313 µg/mL
COc1ccc(-c2ccc(N=Nc3c(N)nc(=O)n(C)c3-c3ccc(OC)c(OC)c3)cc2)cc1OC | IIIB | - | MTT | >1.63 µM
C/C(=N\Nc1nc(-c2ccc([N+](=O)[O-])cc2)cs1)c1ccc(Cl)c(Cl)c1 | IIIB | - | MTT | >14.07 µM

For reference, 6 entries again:

compound,strain or isolate,changes,read by,result
Cn1c(N2CCCCC2)c(N=Nc2ccc(Cl)cc2)c(N)nc1=O,IIIB,-,MTT,>20.11 µM
CCC(O)c1cnc(Nc2ccc(C#N)cc2)nc1Nc1c(C)cc(/C=C/C#N)cc1C,PSI (IIIB),-,-,1070 µM
Cc1csc(CC(O)c2cnc(Nc3ccc(C#N)cc3)nc2Nc2c(C)cc(/C=C/C#N)cc2C)n1,PSI (IIIB),-,-,437 µM
COc1ccc(-c2ccc(N=Nc3c(N)nc(=O)n(C)c3-c3ccc(OC)c(OC)c3)cc2)cc1OC,IIIB,-,MTT,>1.63 µM
CNC(O)c1cnc(Nc2ccc(C#N)cc2)nc1Nc1c(C)cc(/C=C/C#N)cc1C,K103N + Y181C,-,-,0.06607 µM
Cc1cc(/C=C/C#N)cc(C)c1Nc1nc(Nc2ccc(C#N)cc2)ncc1C(O)n1ccnc1,IIIB,-,-,0.00372 µM